Reference: patent publication US20020049257A1, “Antibacterial composition” (priority 2000, published 2002)

Experiment: Odor value / olfactive evaluation

Compound | odor (in words)
COC1CC(C2CC3CC2C(C)C3(C)C)CCC1O (centres unmarked) [2-methoxy-4-(5,5,6-trimethylbicyclo[2.2.1]hept-2-yl)cyclohexan-1-ol] | odorless
COC1CCC(C2CC3CC2C(C)C3(C)C)CC1O (centres unmarked) [2-methoxy-5-(5,5,6-trimethyl-bicyclo[2.2.1]hept-2-yl)cyclohexan-1-ol] | odorless
